{"source": "patent US10774053B2", "about": "“HIV protease inhibitors” (Gilead Sciences, Inc., priority 2017, dated 2020)", "key": {"[1]": {"tested_on": "HIV-1 (IIIB) in MT-4 cells", "conditions": "read-out: MT4 EC50"}, "[2]": {"assay": "Liver microsomal stability, human liver microsomes", "conditions": "human liver microsomes 0.5 mg/mL, 1 uM compound, NADPH-regenerating system, 37° C."}}}
{"smiles": "CC(C)(C)C[C@]1(c2ccc(-c3nncn3C(F)F)cc2F)NC(=N)N([C@H](COC(=O)NC2(C(F)(F)F)CC2)c2ccc(Cl)c(-n3ncnc3C(F)F)c2)C1=O", "values": [{"measurement": "EC50", "setting": "[1]", "result": 76.7, "unit": "nM"}, {"measurement": "Half-life in human liver microsomes", "setting": "[2]", "result": "≥ 6.58", "unit": "h"}]}
